# Test results taken from PubChem BioAssay AID720532 (National Center for Advancing Translational Sciences (NCATS), 2013).
# The entries are a selection whose mix differs from that of the whole data set. Results filed as inconclusive are left out. Entries that show only a call come without a potency. The source made the active and inactive calls. Calls come from the whole dose curve; tested in HEK293 cells.
# Test: qHTS for Inhibitors of binding or entry into cells for Marburg Virus
# Conditions: Marburg virus pseudotype entry/binding inhibition, cell-based; series mostly up to 49.2 µM
# Potency is the fitted concentration of half-maximal effect.
row,SMILES,Potency
1,CC(=O)C1=CCCC2CCC1N2 (configuration not stated),inactive
2,CCNC(C)Cc1ccc2c(c1)OCO2 (configuration not stated),active: 11.2 µM
3,O=C(OC1CN2CCC1CC2)c1ccccc1 (configuration not stated),inactive
4,CCC(C)(OOC(C)(C)C)OOC(C)(C)C,inactive
5,CN(C(=O)Cc1ccccc1)[C@H]1CC[C@@]2(CCCO2)C[C@@H]1N1CCCC1,inactive
6,NC(=O)Nc1ccc([As](=O)(O)O)cc1,inactive
7,O=[N+]([O-])CC(O)c1ccc([N+](=O)[O-])cc1 (configuration not stated),inactive
